# BindingDB's records for 26068018 (University of Florida, 2015)
# Sequences of proteins named here, by UniProt entry; tags and fusion partners are left off. Residues count along the entry.
# UniProt Q9HVB9, 1-215: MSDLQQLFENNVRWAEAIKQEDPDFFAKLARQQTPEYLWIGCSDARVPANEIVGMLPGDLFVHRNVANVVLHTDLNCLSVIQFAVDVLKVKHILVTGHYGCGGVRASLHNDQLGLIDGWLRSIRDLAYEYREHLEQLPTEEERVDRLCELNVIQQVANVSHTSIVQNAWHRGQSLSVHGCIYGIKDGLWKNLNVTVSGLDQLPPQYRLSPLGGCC
# Target: Carbonic anhydrase (Pseudomonas aeruginosa (strain ATCC 15692 / DSM 22644 / CIP 104116 / JCM 14847 / LMG 12228 / 1C / PRS 101 / PAO1), UniProt Q9HVB9)
# Assay: Inhibition of Pseudomonas aeruginosa PAO1 type-2 beta-carbonic anhydrase psCA3 expressed in Escherichia coli Tuner BL21 (DE3) cells pre-incubated for 15 mins at pH 8.3 and 293K by CO2 hydration reaction based colorimetric stopped-flow method
compound,measurement,value
[O]=[V]([OH])([OH])[O][V](=[O])([OH])[OH],Ki,4.9 mM
